Compound potency records, mixed from different reports. Data source: NIAID ChemDB in PubChem.

All rows: toxicity to cultured cells; cells: PBMC; method: MTT; measure: CC50

Neighbouring rows are from separate reports. CCn: concentration that lowers growth or viability of the cells by n%.

SMILES	value
COc1cc(-c2c3nc(c(-c4cc(OC)c(OC)c(OC)c4)c4ccc([n-]4)c(-c4cc(OC)c(OC)c(OC)c4)c4ccc([n-]4)c(-c4cc(OC)c(OC)c(OC)c4)c4nc2C=C4)C=C3)cc(OC)c1OC.[O]=[V+2]	>50 µM
O=c1[nH]cnc2c1ncn2[C@H]1CC[C@@H](CO)O1	>7.5 µM
Nc1nc2c(ncn2[C@@H]2C=C(F)[C@H](CO)S2)c(=O)[nH]1	>100 µM
Cc1cc(C)nc(N2C(=O)CSC2c2c(Cl)cccc2[N+](=O)[O-])c1	9 µg/mL
Nc1nc2c(ncn2[C@H]2OC[C@@](F)(CCP(=O)(O)O)[C@H]2F)c(=O)[nH]1	>100 µM
C=C/C=C(\C=C/Cc1c2nc(c(-c3ccc(S(=O)(=O)NCCN(CC)CC)cc3)c3ccc([n-]3)c(C/C=C\C(=C/C=C)S(=O)(=O)NCCN(CC)CC)c3ccc([n-]3)c(-c3ccc(S(=O)(=O)NCCN(CC)CC)cc3)c3nc1C=C3)C=C2)S(=O)(=O)NCCN(CC)CC.[O]=[V+2]	>50 µM
Nc1ncnc2c1ncn2C1CC(CCP(=O)(O)O)(C(F)(F)F)CO1	>100 µM
Nc1ncnc2c1ncn2CCOCP(=O)(O)O	>100 µM
CC1=CC2=C(C(C)C)C(O)C(=O)/C(=C\N[C@@H](C(=O)O)C(C)C)C2C(O)=C1c1c(C)cc2c(C(C)C)c(O)c(O)c(C=N[C@H](C(=O)O)C(C)C)c2c1O.[Na+].[Na+]	70.67 µM
Nc1nc2c(ncn2[C@H]2C=C[C@@H](CO)O2)c(=O)[nH]1	54.2 µM
Nc1ncnc2c1ncn2CCOCP(=O)(O)O	>100 µM
Cc1cn([C@H]2C=C[C@@H](COC(=O)CCNC(=O)C(=O)/C=C(\O)c3cccn3Cc3ccc(F)cc3)O2)c(=O)[nH]c1=O	>10 µM
CC[C@@]1(O)C(=O)OCc2c1cc1n(c2=O)Cc2c-1nc1ccccc1c2CO	0.06 µg/mL
Cc1cn([C@H]2C[C@H](N=[N+]=[N-])[C@@H](CO)O2)c(=O)[nH]c1=O	>100 µM
CCN(CC)CCNC(=O)/C=C/C1(C)COC2(OO1)C1CC3CC(C1)CC2C3	>100 µM
CC(C)(N)C(=O)O.[Na+]	81.43 µM
CCc1nc2ccccn2c1C(=O)c1ccco1	>100 µM
Nc1ncnc2c([C@H]3CC[C@](/C=C/P(=O)(O)O)(C(F)(F)F)C3)c[nH]c12	>100 µM
C[C@H](N)C(=O)O.[Na+]	95.08 µM
Nc1nc(=O)n([C@H]2C=C(F)[C@@H](CO)S2)cc1F	>100 µM
O=c1[nH]cnc2c1ncn2[C@H]1CC[C@@](F)(/C=C/P(=O)(O)O)C1	95 µM
Cc1cn([C@H]2C=C[C@@H](COC(=O)CCNC(=O)C(=O)/C=C(\O)c3cc(OCc4ccccc4)cc(OCc4ccccc4)c3)O2)c(=O)[nH]c1=O	>10 µM
Cc1cn([C@@H]2C=C(F)[C@H](CO)S2)c(=O)[nH]c1=O	>100 µM
Cc1cn([C@H]2C[C@H](N=[N+]=[N-])[C@@H](CO)O2)c(=O)[nH]c1=O	>100 µM
[N-]=[N+]=Nc1nc(N)nc2c1ncn2[C@H]1CO[C@@H](CO)O1	>100 µM
Cc1cn([C@H]2C=C[C@@H](COC(=O)CNC(=O)C(=O)/C=C(\O)c3cccn3Cc3ccc(F)cc3)O2)c(=O)[nH]c1=O	>10 µM
Nc1nc(NC2CC2)c2ncn([C@H]3C=C[C@@H](CO)C3)c2n1	>4 µM
CC[C@H](C)[C@H]1NC(=O)[C@@H](NC(=O)[C@@H](CC(C)C)N(C)C(=O)c2cc3ccccc3s2)[C@@H](C)OC(=O)[C@H](Cc2ccc(OC)cc2)N(C)C(=O)[C@@H]2CCCN2C(=O)[C@H](CC(C)C)NC(=O)[C@H](C(C)C)OC(=O)C[C@@H]1O	5.94 µM
CCCCN1C(=O)[C@@H]([C@H](O)C2CCCCC2)NC(=O)C12CCN(Cc1ccc(Oc3ccc(C(=O)O)cc3)cc1)CC2	50 µM
CC1=CC2=C(C(C)C)C(O)C(=O)/C(=C\NC(C)(C)C(=O)O)C2C(O)=C1c1c(C)cc2c(C(C)C)c(O)c(O)c(C=NC(C)(C)C(=O)O)c2c1O.[Na+].[Na+]	81.43 µM
Nc1ncnc2c1ncn2[C@H]1OC[C@@](F)(C=CP(=O)(O)O)[C@H]1F	>100 µM
CCO/N=C(\c1ccc(Br)cc1)C1CCN(C2(C)CCN(C(=O)c3c(C)cc[n+]([O-])c3C)CC2)CC1	>100 µM
Nc1nc(=O)n([C@@H]2CS[C@H](CO)O2)cc1F	>12.1 µM
CC[C@H](C)[C@H]1NC(=O)[C@@H](NC(=O)[C@@H](C)N(C)C(=O)[C@@H]2CCCN2C(=O)C(C)=O)[C@@H](C)OC(=O)[C@H](Cc2ccc(OC)cc2)N(C)C(=O)[C@@H]2CCCN2C(=O)[C@H](CC(C)C)NC(=O)[C@@H](C)C(=O)[C@H](C(C)C)OC(=O)C[C@@H]1O	>46.81 µM
Nc1ncnc2c1ncn2[C@@H]1OC[C@](CO)(CCP(=O)(O)O)[C@@H]1F	57.5 µM
Nc1nc(NCc2ccccc2)c2ncn([C@H]3CO[C@@H](CO)O3)c2n1	>100 µM
CC[C@H](C)[C@H]1NC(=O)[C@@H](NC(=O)[C@@H](C)NC)[C@@H](C)OC(=O)[C@H](Cc2ccc(OC)cc2)N(C)C(=O)[C@@H]2CCCN2C(=O)[C@H](CC(C)C)NC(=O)[C@@H](C)C(=O)[C@H](C(C)C)OC(=O)C[C@@H]1O	>55.49 µM
Cc1cc(=O)c2ccc(N=C=S)cc2o1	10.4 µM
CCc1nc2ccccn2c1C(=O)c1cccs1	120 µM
Nc1nc(N)c2ncn([C@H]3CC[C@](OCP(=O)(O)O)(C(F)(F)F)C3)c2n1	98 µM
COc1cc(OC)nc(N2C(=O)CSC2c2c(Cl)cccc2[N+](=O)[O-])n1	37 µg/mL
Nc1nc2c(ncn2C2CC(CCP(=O)(O)O)(C(F)(F)F)CO2)c(=O)[nH]1	>100 µM
Nc1nc2c(ncn2[C@@H]2OC[C@](CO)(CCP(=O)(O)O)[C@@H]2F)c(=O)[nH]1	>100 µM
O=c1ccn([C@H]2C=C(F)[C@@H](CO)S2)c(=O)[nH]1	>100 µM
CC[C@H](C)[C@H]1NC(=O)[C@@H](NC(=O)[C@H](CC(C)C)N(C)C(=O)[C@@H]2CCCN2C(=O)C(C)=O)[C@@H](C)OC(=O)[C@H](Cc2ccc(OC)cc2)N(C)C(=O)[C@@H]2CCCN2C(=O)[C@H](CC(C)C)NC(=O)[C@@H](C)C(=O)[C@H](C(C)C)OC(=O)C[C@@H]1O	15.23 µM
CC1(C)CC[C@]2(C(=O)O)CC[C@]3(C)C(=CC[C@@H]4[C@@]5(C)CC[C@H](O[C@@H]6O[C@H](CO)[C@H](O[C@@H]7O[C@H](OO)[C@H](O)[C@H](O)[C@H]7O)[C@H](O)[C@H]6O)C(C)(C)[C@@H]5CC[C@]43C)[C@@H]2C1	9.44 µg/mL
CC1(/C=C/C(=O)NCCNCCCC=O)COC2(OO1)C1CC3CC(C1)CC2C3	>100 µM
CC1=CC2=C(C(C)C)C(O)C(=O)/C(=C\N[C@H](C)C(=O)O)C2C(O)=C1c1c(C)cc2c(C(C)C)c(O)c(O)c(C=N[C@@H](C)C(=O)O)c2c1O.[Na+].[Na+]	95.08 µM
Nc1nc2c(ncn2[C@H]2CO[C@@H](CO)O2)c(=O)[nH]1	>100 µM
Nc1ncnc2c1ncn2CCOCP(=O)(O)O	>100 µM
Nc1ncnc2c1ncn2[C@H]1CC[C@@](F)(/C=C/P(=O)(O)O)C1	98 µM

For reference, 4 entries again:

| SMILES | value |
|---|---|
| Cc1cc(=O)c2ccc(N=C=S)cc2o1 | 10.4 µM |
| Nc1ncnc2c1ncn2[C@@H]1OC[C@](CO)(CCP(=O)(O)O)[C@@H]1F | 57.5 µM |
| CC1=CC2=C(C(C)C)C(O)C(=O)/C(=C\N[C@H](C)C(=O)O)C2C(O)=C1c1c(C)cc2c(C(C)C)c(O)c(O)c(C=N[C@@H](C)C(=O)O)c2c1O.[Na+].[Na+] | 95.08 µM |
| CCO/N=C(\c1ccc(Br)cc1)C1CCN(C2(C)CCN(C(=O)c3c(C)cc[n+]([O-])c3C)CC2)CC1 | >100 µM |